Measured values taken from ChEMBL document CHEMBL3627621, “Interactions of a potent cyclic peptide inhibitor with the light chain of botulinum neurotoxin A: Insights from X-ray crystallography” (2015).
Active and inactive are the calls of the source. The calls are words filed in the database; no cut-off is given here.

Protein sequences, listed by entry. Tags and fused reporters are not part of them.
UniProt P0DPI0, whole entry, looked up: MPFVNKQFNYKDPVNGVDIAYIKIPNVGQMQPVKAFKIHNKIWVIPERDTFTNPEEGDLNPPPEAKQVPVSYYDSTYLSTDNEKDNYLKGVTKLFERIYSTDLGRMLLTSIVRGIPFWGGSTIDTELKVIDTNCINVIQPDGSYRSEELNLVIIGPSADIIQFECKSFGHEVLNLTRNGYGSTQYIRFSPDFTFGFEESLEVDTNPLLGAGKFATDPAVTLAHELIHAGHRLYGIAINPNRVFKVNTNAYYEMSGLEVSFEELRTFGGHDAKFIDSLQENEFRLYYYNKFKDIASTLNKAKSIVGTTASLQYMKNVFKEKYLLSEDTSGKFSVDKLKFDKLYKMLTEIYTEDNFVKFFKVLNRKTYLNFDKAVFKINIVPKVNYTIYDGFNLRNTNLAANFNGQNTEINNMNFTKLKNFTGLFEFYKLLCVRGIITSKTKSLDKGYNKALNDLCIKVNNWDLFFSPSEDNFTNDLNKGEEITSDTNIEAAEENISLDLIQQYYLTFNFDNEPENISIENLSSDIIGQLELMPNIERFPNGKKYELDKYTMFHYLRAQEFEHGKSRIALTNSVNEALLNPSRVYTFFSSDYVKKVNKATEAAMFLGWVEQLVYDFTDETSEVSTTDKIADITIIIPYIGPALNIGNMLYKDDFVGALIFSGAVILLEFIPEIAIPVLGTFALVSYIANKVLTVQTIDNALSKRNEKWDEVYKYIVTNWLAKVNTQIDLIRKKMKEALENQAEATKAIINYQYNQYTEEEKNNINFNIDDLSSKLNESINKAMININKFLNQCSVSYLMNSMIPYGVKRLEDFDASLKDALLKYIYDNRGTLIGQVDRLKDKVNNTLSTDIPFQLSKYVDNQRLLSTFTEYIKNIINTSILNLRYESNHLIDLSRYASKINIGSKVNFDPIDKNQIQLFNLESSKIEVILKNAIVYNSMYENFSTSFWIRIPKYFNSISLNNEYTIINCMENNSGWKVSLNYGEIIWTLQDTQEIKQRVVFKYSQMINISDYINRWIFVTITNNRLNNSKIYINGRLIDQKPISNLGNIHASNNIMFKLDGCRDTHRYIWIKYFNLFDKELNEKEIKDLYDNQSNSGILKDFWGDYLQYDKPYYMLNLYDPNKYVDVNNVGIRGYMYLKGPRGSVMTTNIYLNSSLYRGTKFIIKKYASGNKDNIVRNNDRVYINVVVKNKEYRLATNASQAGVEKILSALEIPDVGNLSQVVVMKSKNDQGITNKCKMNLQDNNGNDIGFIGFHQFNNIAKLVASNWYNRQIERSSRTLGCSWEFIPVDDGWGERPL

Molecular target: Botulinum neurotoxin type A (Clostridium botulinum) (UniProt P0DPI0)
Experiment: Inhibition of Clostridium botulinum BoNT/A light chain-mediated SNAP-25 cleavage pretreated for 2 hrs by FRET assay using CFP-SNAP-25 (141-206)-YFP as substrate

With `CC(C)C[C@H](NC(=O)[C@@H]1CSSC[C@H](N)C(=O)NCC[C@H](N)C(=O)N[C@@H](CCCNC(=N)N)C(=O)N[C@@H](Cc2cc3ccccc3[nH]2)C(=O)N[C@@H]([C@H](C)O)C(=O)N[C@@H](CCCCN)C(=O)N1)C(N)=O` the inhibition was “Active”.
